target: Zaire GP (1–320) with a His tag (Ebolavirus, Zaire strain, UniProt Q05320 33-320); test: SPR

Binder | Kd
hTIM-1 Ig V R106A (protein) VKVGGEAGPSVTLPCHYSGAVTSMCWNRGSCSLFTCQNGIVWTNGTHVTYRKDTRYKLLGDLSRRDVSLTIENTAVSDSGVYCCAVEHRGWFNDMKITVSLEIVPP | 392 µM
hTIM-1 Ig V D115A (protein) VKVGGEAGPSVTLPCHYSGAVTSMCWNRGSCSLFTCQNGIVWTNGTHVTYRKDTRYKLLGDLSRRDVSLTIENTAVSDSGVYCCRVEHRGWFNAMKITVSLEIVPP | 21.3 µM
hTIM-1 Ig V N114A (protein) VKVGGEAGPSVTLPCHYSGAVTSMCWNRGSCSLFTCQNGIVWTNGTHVTYRKDTRYKLLGDLSRRDVSLTIENTAVSDSGVYCCRVEHRGWFADMKITVSLEIVPP | 45.9 µM
hTIM-1 Ig V K117A (protein) VKVGGEAGPSVTLPCHYSGAVTSMCWNRGSCSLFTCQNGIVWTNGTHVTYRKDTRYKLLGDLSRRDVSLTIENTAVSDSGVYCCRVEHRGWFNDMAITVSLEIVPP | 196 µM
hTIM-1 Ig V R86A (protein) VKVGGEAGPSVTLPCHYSGAVTSMCWNRGSCSLFTCQNGIVWTNGTHVTYRKDTRYKLLGDLSRADVSLTIENTAVSDSGVYCCRVEHRGWFNDMKITVSLEIVPP | 51.1 µM
hTIM-1 Ig V R110A (protein) VKVGGEAGPSVTLPCHYSGAVTSMCWNRGSCSLFTCQNGIVWTNGTHVTYRKDTRYKLLGDLSRRDVSLTIENTAVSDSGVYCCRVEHAGWFNDMKITVSLEIVPP | 49.5 µM

Reference: publication PMC4624681 (2015)
